Results of unrelated studies side by side (data: NIAID ChemDB).

All rows: toxicity to cultured cells; cells: HEK 293; read-out: CC50

CCn is the concentration with n% toxicity to the cells. Conditions beyond the fields shown may differ between rows. An empty or dashed field is not shown.

structure | read by | value
O=C(/C=C/C=C/c1ccc([N+](=O)[O-])cc1)[Se]c1ccccc1 | WST | >100 µM
COc1cc(O)cc2oc3cc(O)c(O)cc3c(=O)c12 | sulforhodamine / absorbance | >50 µM
CC(CCN(CCC(C)c1ccccc1)c1ccc2nc(N)[nH]c2c1)c1ccccc1 |  | 11 µM
CC(C)=CC[C@H]1C[C@@]2(C[C@H]3CCC(C)(C)C=C3C)C(=O)[C@](C(=O)c3ccccc3)(C(=O)C3=C2OC(C)(C)CC3)C1(C)C | sulforhodamine / absorbance | >50 µM
CC(C)=CCC/C(C)=C/CC/C(C)=C/CC[C@@]1(C)CCc2cc(O)cc(C)c2O1 | ATP | >26 µM
C[N+]1=c2cc(N/C=C/c3ccc(O)cc3)c(O)c3c2=C(C=N3)CC1 | resazurin | 1.4 µM
CC[C@H](/C=C/[C@@H](C)[C@H]1CCC2C3CC=C4C[C@@H](O)CC[C@]4(C)[C@@]3(C)CC[C@@]21C)C(C)C | ATP | >26 µM
COc1cc(/C=C/C(=O)[Se]c2ccccc2)ccc1O | WST | >100 µM
CN[C@@H](CC1=CN=c2c(O)c3c(c(O)c21)=NCCS3(=O)=O)C(=O)O.O=C(O)C(F)(F)F | resazurin / fluorescence | >80 µM
C[C@@H]1CCC2[C@@H](C)[C@@H](OCCNCCCn3ccnc3)O[C@@H]3OC4(C)CCC1[C@@]23OO4 | ATP / luminescence | >22.7 µM
CC/C=C\C[C@H]1C(=O)CC[C@@H]1CC(=O)OC | ATP | >26 µM
O=C1c2c(O)cc(O)cc2O[C@@H](c2ccc(O)cc2)[C@@H]1c1c(O)cc(O)c2c(=O)cc(-c3ccc(O)c(O)c3)oc12 | sulforhodamine / absorbance | >50 µM
CC(CCN(CCC(C)CC(C)(C)C)c1ccc2nc(N)[nH]c2c1)CC(C)(C)C |  | 21 µM
O=C(/C=C/C=C/c1ccc(Br)cc1)[Se]c1ccccc1 | WST | >100 µM
O=C(O)C(=O)/C=C(\O)c1cccn1Cc1ccc(F)cc1 |  | >100 µM
Cn1cc2c3c1C(=O)C(NCCc1ccc(O)cc1)=CC3=NCC2 | resazurin | 1.1 µM
CCC(=O)OC1O[C@@H]2OC3(C)CCC4[C@H](C)CCC([C@H]1C)[C@]42OO3 | ATP / luminescence | >26 µM
CN[C@@H](CC1=c2c(O)c3c(c(O)c2N=C1)=NC=CS3(=O)=O)C(=O)O.O=C(O)C(F)(F)F | resazurin / fluorescence | >40 µM
Cc1cc(N)c2nc(N)[nH]c2c1 |  | >100 µM
CC(C)=CCC[C@@H](C)[C@@H]1CC[C@]2(C)C3=C(CC[C@@]12C)[C@@]1(C)CC[C@H](O)C(C)(C)[C@@H]1CC3 | sulforhodamine / absorbance | 37.1 µM
O=C(/C=C/C=C/c1ccccc1)[Se]c1ccccc1 | WST | >100 µM
CC(=O)Oc1ccccc1C(=O)OC1O[C@@H]2OC3(C)CCC4[C@H](C)CCC([C@H]1C)[C@]42OO3 | ATP / luminescence | >26 µM
C/C=C/c1ccc2c(c1)[C@H](C)[C@@H](c1ccc(OC)c(OC)c1)O2 | sulforhodamine / absorbance | 47.5 µM
C=C/C(C)=C/C[C@H]1C(=C)CCC2[C@@](CCCCCCCCCCCCCCCCCCCC)(C(=O)O)CCC[C@@]21C |  | 152.6 µg/mL
O=c1oc2c(O)c(O)cc3c(=O)oc4c(O)c(O)cc1c4c23 | ATP | >26 µM
Cc1ccc(/C=C/C=C/C(=O)[Se]c2ccccc2)cc1 | WST | >100 µM
COc1cc(-c2ccccc2)c(O)c(OC)c1O | sulforhodamine / absorbance | >50 µM
O=C(/C=C/c1ccc(O)cc1)[Se]c1ccccc1 | WST | >100 µM
N=C(N)c1ccc2cc(OCCc3ccc(N)cc3)ccc2c1 |  | 48 µM